Taken from: PubChem BioAssay AID1259414 (Drosophila RNAi Screening Center, 2018)

Aim: 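Host factors increasing or decreasing Wolbachia levels in cultured fly cells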 (primary screen)
Cell system: Drosophila JW18 cells infected with Wolbachia
Reagent: long dsRNA against Drosophila genes, 0.25 µg dsRNA per well of a 384-well plate
Time to read-out: 5 days
Challenge: cells persistently infected with Wolbachia before knock-down; no added drug
Measurement: 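Automated imaging of bacterial rRNA staining divided by host cell count, reported as plate-normalised robust z-score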
Reading the numbers: Wolbachia per cell robust z: higher = more Wolbachia per host cell than the plate typical
Hit rule: 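Active if absolute robust z reaches 1.5 in two or more of three replicates, leaving out multi- or no-target dsRNAs, genes unexpressed in JW18 and A1 wells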
The screen tested about 24,000 reagents; shown is an unselected part of those with a known target gene and a result. In the full data, about 1,210 (5%) are marked active. 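Inactive calls also include excluded dsRNAs with several or no targets, genes unexpressed in JW18, and well A1, regardless of score.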 Names joined by + are all predicted targets of the reagent.

target | amplicon | Wolbachia per cell robust z, rep 1 | Wolbachia per cell robust z, rep 2 | Wolbachia per cell robust z, rep 3 | Call
CG11617 | DRSC00321 | -1.11 | 0.704 | 0.94 | inactive
CG11617 | DRSC21786 | 0.0366 | -1.4 | -1.04 | inactive
CG11617 | DRSC28154 | -1.07 | 0.201 | -1.55 | inactive
Vha44 | DRSC07572 | -2.18 | 0.942 | -0.965 | inactive
Vha44 | DRSC07573 | -1.14 | -4.41 | 0.961 | inactive
Vha44 | DRSC24506 | -1.27 | -0.557 | -0.505 | inactive
CG31097 | DRSC14666 | -4.62 | 0.933 | -3.26 | active
Syx18 | DRSC14628 | -6.93 | -0.63 | 0.471 | inactive
CLIP-190 | DRSC03283 | -0.0919 | -0.481 | -0.392 | inactive
CLIP-190 | DRSC30075 | 0.605 | -0.802 | 0.709 | inactive
CG8568 | DRSC20113 | -0.653 | 0.168 | -0.157 | inactive
CG8568 | DRSC26687 | 0.323 | 0.273 | 0.211 | inactive
CG13545 | DRSC04187 | 0.67 | -0.203 | -0.274 | inactive
CG13545 | DRSC25484 | 0.0162 | -0.339 | -2.88 | inactive
lncRNA:CR31781 | DRSC02431 | 0.865 | 0.641 | 1.93 | inactive
lncRNA:CR31781 | DRSC02432 | 0.0671 | 1.16 | 0.503 | inactive
pyx + CG13877 | DRSC08347 | -0.00456 | 0.266 | -1.67 | inactive
CG2652 | DRSC18501 | -1.74 | 0.159 | -0.456 | inactive
CG2652 | DRSC22576 | 0.61 | 1.07 | 1.3 | inactive
CG2652 | DRSC27496 | 1.64 | 0.801 | 0.602 | inactive
Jon99Ci | DRSC16860 | 0.133 | 0.15 | 0.0586 | inactive
Jon99Ci | DRSC28041 | 1.18 | -0.999 | -1.45 | inactive
CG13692 | DRSC00361 | -0.236 | 1.76 | -1.13 | inactive
CG13692 | DRSC28585 | 0.122 | -0.132 | -1.45 | inactive
Ns4 | DRSC03199 | -2.52 | 0.234 | -1.14 | inactive
Ns4 | DRSC27230 | -0.00428 | -0.947 | -1.59 | inactive
sowi | DRSC12558 | -1.18 | -1.14 | -0.377 | inactive
sowi | DRSC24116 | 0.547 | -0.0946 | 0.00519 | inactive
CG6163 | DRSC10595 | 1.28 | -0.254 | 1.42 | inactive
CG6163 | DRSC26527 | -0.146 | -0.446 | 1.24 | inactive
sta | DRSC18838 | 0.209 | 1.41 | 1.18 | inactive
sta | DRSC25879 | 1.54 | 6.64 | 6.59 | active
lectin-46Cb | DRSC06611 | 2.19 | -3.7 | -1.11 | inactive
lectin-46Cb | DRSC25309 | 0.473 | -0.837 | -0.844 | inactive
alpha-Man-IIa | DRSC15393 | 0.773 | -0.801 | 0.0917 | inactive
CG43355 + sala | DRSC01188 | 0.0163 | 0.936 | 0.645 | inactive
CG8323 | DRSC07149 | 0.657 | 1.03 | -0.0711 | inactive
CheB53b | DRSC05613 | -0.205 | 0.525 | 0.301 | inactive
CheB53b | DRSC28557 | 0.235 | 0.79 | 0.86 | inactive
Dhc98D | DRSC16645 | 0.711 | -0.436 | -1.56 | inactive
Dhc98D | DRSC27784 | 0.197 | 1.75 | 1.27 | inactive
CG2818 | DRSC00540 | -0.986 | -0.534 | 0.4 | inactive

A few values from above:
For “Wolbachia per cell robust z, rep 3”, sta [DRSC18838] has 1.18
Under “Wolbachia per cell robust z, rep 3”, sta [DRSC25879] has 6.59
CG13545 [DRSC04187], Call: inactive

The list goes on.
target | amplicon | Wolbachia per cell robust z, rep 1 | Wolbachia per cell robust z, rep 2 | Wolbachia per cell robust z, rep 3 | Call
vrs | DRSC15832 | 1.04 | -0.0462 | -0.483 | inactive
vrs | DRSC26261 | -0.00119 | 0.146 | 0.0163 | inactive
Ppr-Y | DRSC20892 | 1.69 | -0.736 | -1.49 | inactive
EMRE | DRSC06686 | -0.0456 | -0.283 | -1.94 | inactive
Oscillin | DRSC03001 | 0.208 | -1.64 | -0.0881 | inactive
Oscillin | DRSC29150 | 0.764 | 1.31 | 1.09 | inactive
VAChT | DRSC13311 | -0.624 | -0.531 | -0.515 | inactive
VAChT | DRSC16608 | 0.0694 | 0.062 | -0.225 | inactive
VAChT | DRSC23986 | -0.155 | -0.608 | -1.01 | inactive
Uro | DRSC03469 | -1.03 | -0.855 | -0.393 | inactive
CG6345 | DRSC16024 | 0.909 | -0.637 | -0.116 | inactive
CG43336 | DRSC15765 | -3.26 | -2.54 | -0.723 | inactive
CG8087 | DRSC16375 | -0.214 | 1.37 | 0.234 | inactive
CG8087 | DRSC26924 | -0.223 | 0.911 | -0.509 | inactive
CG4592 | DRSC02761 | 0.0746 | 0.672 | 0.221 | inactive
CG9993 | DRSC04599 | -0.318 | 0.0468 | 1.19 | inactive
Takl1 | DRSC13443 | -5.01 | 0.81 | -0.643 | inactive
Takl1 | DRSC28251 | 0.337 | 2.21 | 1.05 | inactive
Sec5 | DRSC00714 | 1.6 | 2.07 | 2.82 | active
CG13540 | DRSC04182 | -0.102 | -2.36 | -0.684 | inactive
Ahcy | DRSC19329 | 0.677 | 0.305 | -1.69 | inactive
Ahcy | DRSC27304 | 0.0049 | 0.321 | 0.21 | inactive
RanBP3 | DRSC23153 | -0.299 | 0.698 | 0.649 | inactive
RanBP3 | DRSC27585 | 1.42 | -1.96 | 1.14 | inactive
CG33721 | DRSC37807 | 0.203 | 0.51 | 0.544 | inactive
Mfe2 | DRSC19869 | 0.739 | -3.35 | 1.09 | inactive
